Source: paper PMC9519446, “Discovery of an Orally Active Benzoxaborole Prodrug Effective in the Treatment of Chagas Disease in Non-human Primates” (Nature microbiology, 2022)

System: CPSF3-OE T. cruzi intracellular amastigotes
Assay type: cell-based, Trypanosoma cruzi
Conditions: T. cruzi CPSF3-OE vs WT
Description: The in vitro anti-T. cruzi amastiogote activity assay was performed and optimized based on the protocol described previously. The change in tdTomato fluorescence intensity was determined as a measurement of growth over 72 hours of culture. For assaying drug effects on extracellular amastigotes, trypomastigotes were collected from infected Vero cell cultures and converted in acidic media as previously described. Amastigotes (50,000/well) were incubated with 2-fold serial dilutions of compounds for 48 hours. The ATP production was used as an indication of growth in this case, and was measured by ATPlite Luminescence ATP Detection Assay System (PerkinElmer). Both fluorescence and luminescence were read using a BioTek Synergy Hybrid Multi-Mode reader equipped with the software Gene5 v 2.0 (BioTek). […]
To confirm the CPSF overexpression in the selected transfectants, RNA was extracted as previously described and converted to cDNA using SuperScript Reverse Transcriptase (Invitrogen). Quantitative PCR reactions were performed in triplicate on the C1000 Touch Bio-Rad CFX96 real-time PCR detection system for CPSF using primer sets CPSF-1 (5'-[…]-3' and 5'-[…]-3') and CPSF-2 (5'-[…]-3' and 5'-[…]-3') in both control and CPSF over-expressing parasites, and the expression level was normalized to tubulin which was amplified using primers: ‘[…]’ and ‘[…]’.

Cc1c(C(=O)N[C@H](C(=O)OCC2CCOCC2)C(C)C)ccc2c1B(O)OC2 [AN15368]
increase in resistance on overexpression of CPSF3: 3-5 fold
